Compound potency records, mixed from different reports. Data source: NIAID ChemDB in PubChem.

Shared fields: growth or infection tests

Inhibition is in % at the dose shown (toxicity tests: loss of growth or viability).

compound,species,strain or isolate,read by,conditions,endpoint,tested at,result
CCNC(=O)c1c(C)nc2ccccn12,Mycobacterium ulcerans,-,fluorescence,-,MIC50,-,>10 µg/mL
Fc1cc(Br)ccc1Nc1nnc(-c2ccncc2)o1,Mycobacterium kansasii,My 235/80,broth dilution,21 d,MIC100,-,>125 µM
Cc1ccc2oc(=O)n(-c3ccc(F)cc3)c(=S)c2c1,Mycobacterium kansasii,My 235/80,-,14 d,MIC,-,8 µM
FC(F)(F)c1cccc(Oc2ccc(Nc3ncnc4ccsc34)cc2)c1,Mycobacterium bovis BCG,-,luminescence,-,MIC50,-,>50 µM
CCCCCCCCCCCCCCCCCCCCC(=O)NC(C)(CCC(=O)O)CCC(=O)O,Mycobacterium chelonae,EO-P-1,-,-,MIC,-,14 µg/mL
Cc1ccc(-n2c(=S)oc3ccc(F)cc3c2=S)cc1,Mycobacterium kansasii,My 235/80,-,14 d,MIC,-,8 µM
Cc1ccn2c(C(=O)NCc3ccc(N4CCOCC4)cc3)c(C)nc2c1,Mycobacterium ulcerans,-,fluorescence,-,MIC50,-,0.1–1 µg/mL
COc1ccc2nc(C)cc(Nc3ccc(Oc4ccc(C(F)(F)F)cc4)cc3)c2c1,Mycobacterium bovis BCG,-,luminescence,-,MIC50,-,20 µM
CCCCc1ccc(NC(=O)NNC(=O)c2ccncc2)cc1,Mycobacterium avium,MY330/88,broth dilution,14 d,MIC100,-,62.5 µM
FC(F)(F)Oc1ccc(Oc2ccc(Nc3ncnc4ccccc34)cc2)cc1,Mycobacterium bovis BCG,-,luminescence,-,MIC50,-,>20 µM
O=C(NNC(=O)c1ccncc1)Nc1ccc(Br)cc1Br,Mycobacterium kansasii,My 6509/96,broth dilution,7 d,MIC100,-,>125 µM
Cc1ccn2c(C(=O)NCc3ccc(N4CCC(c5ccc(OC(F)(F)F)cc5)CC4)c(Cl)c3)c(C)nc2c1.Cl,Mycobacterium avium,-,fluorescence,-,inhibition,0.5 µM,85%
CO[C@@]1(NC(=O)Cc2ccccc2)C(=O)N2C(C(=O)O)=C(COC(C)=O)CSC21,Mycobacterium fortuitum,914-8,-,-,MIC,-,6.25 µg/mL
CO[C@H]1/C=C/O[C@@]2(C)Oc3c(C)c(O)c4c(=O)c(c5oc6cc(N7CCN(CC(C)C)CC7)cc(=O)c6nc5c4c3=C2O)NC(=O)/C(C)=C\C=C\[C@H](C)[C@H](O)[C@@H](C)[C@@H](O)[C@@H](C)[C@H](OC(C)=O)[C@@H]1C,Mycobacterium ulcerans,Isolate 5143,-,-,MIC,-,0.025 µg/mL
CC(C)(C)c1ccc(CCOc2ncnc3sccc23)cc1,Mycobacterium bovis BCG,-,luminescence,-,MIC50,-,>20 µM
CCc1nc2cc(F)ccn2c1C(=O)NCc1ccc(N2CCN(c3ccc(OC(F)(F)F)cc3F)[C@@H](C)C2)c(F)c1.Cl,Mycobacterium avium,-,fluorescence,-,inhibition,0.0076 µM,85%
CC(C)(C)c1ccc(NC(=O)NNC(=O)c2ccncc2)cc1,Mycobacterium kansasii,My 235/80,broth dilution,7 d,MIC100,-,32 µM
C[C@@H](O)[C@H]1C(=O)N2C(C(=O)O)=C(SCCN=CN)C[C@H]12,Mycobacterium fortuitum,1047,-,-,MIC,-,3.12 µg/mL
COc1ccn2nc(C)c(C(=O)NCc3cc(F)c(N4CCN(c5ccc(OC(F)(F)F)cc5)[C@@H](C)C4)c(F)c3)c2c1.Cl,Mycobacterium avium,-,fluorescence,-,inhibition,0.0068 µM,85%
CCCCCCCCCCCN(CCCCCCCCCCC)C(=O)NC(CCC(=O)O)(CCC(=O)O)CCC(=O)O,Mycobacterium abscessus,AAy-P-1,-,-,MIC,-,72 µg/mL
c1ccc(Oc2ccc(Nc3ncnc4ccccc34)cc2)cc1,Mycobacterium bovis BCG,-,luminescence,-,MIC50,-,>20 µM
CCc1nc(N)nc(N)c1-c1ccc(Cl)cc1,Mycobacterium avium complex,DW9,-,-,MIC,-,32 µg/mL
Cc1nn2ccccc2c1C(=O)NCc1ccc(N2CCN(c3ccc(OC(F)(F)F)cc3)[C@@H](C)C2)c(F)c1.Cl,Mycobacterium avium,-,fluorescence,-,inhibition,0.092 µM,85%
Cc1ccc(NC(=O)NNC(=O)c2ccncc2)cc1,Mycobacterium kansasii,My 6509/96,broth dilution,14 d,MIC100,-,62.5 µM
Cc1cc(C)nc(Oc2ccc(Nc3ncnc4ccccc34)cc2)n1,Mycobacterium bovis BCG,-,luminescence,-,MIC50,-,>20 µM
Cc1ccc2oc(=S)n(-c3cccc(F)c3)c(=S)c2c1,Mycobacterium kansasii,My 235/80,-,14 d,MIC,-,16 µM
CCCCCCCCCC(CCCCCCCCC)NC(=O)NC(CCC(=O)O)(CCC(=O)O)CCC(=O)O,Mycobacterium abscessus,AAy-P-1,-,-,MIC,-,144 µg/mL
COc1ccc2ncnc(NCCc3ccc(OC(F)(F)F)cc3)c2c1,Mycobacterium bovis BCG,-,luminescence,-,MIC50,-,>20 µM
Cc1cc2nc(CCNC(=O)c3c(C)nc4ccc(Cl)cn34)[nH]c2cc1C,Mycobacterium ulcerans,-,fluorescence,-,MIC50,-,>10 µg/mL
FC(F)(F)Oc1ccc(Oc2ccc(Nc3ncnc4cc(Br)ccc34)cc2)cc1,Mycobacterium bovis BCG,-,luminescence,-,MIC50,-,>20 µM
CCCCCc1ccc(NC(=O)NNC(=O)c2ccncc2)cc1,Mycobacterium kansasii,My 6509/96,broth dilution,7 d,MIC100,-,32 µM
CCc1nc2cc(F)ccn2c1C(=O)NCc1ccc(N2CCN(c3ccc(OCC(F)(F)F)nc3)[C@@H](CC)C2)c(F)c1.Cl,Mycobacterium avium,-,fluorescence,-,inhibition,0.017 µM,85%
Fc1ccc2c(Nc3ccc(Oc4cccc(C(F)(F)F)c4)cc3)ncnc2c1,Mycobacterium bovis BCG,-,luminescence,-,MIC50,-,>20 µM
CCCCCCCCCCCCCCCCCOC(=O)NC(CCC(=O)O)(CCC(=O)O)CCC(=O)O,Mycobacterium abscessus,AAy-P-1,-,-,MIC,-,72 µg/mL
O=C(NNC(=O)c1ccncc1)Nc1ccc(Br)c(C(F)(F)F)c1,Mycobacterium kansasii,My 6509/96,broth dilution,21 d,MIC100,-,125 µM
Cc1nc(Nc2ccc(Oc3ccc(OC(F)(F)F)cc3)cc2)c2ccc(F)cc2n1,Mycobacterium bovis BCG,-,luminescence,-,MIC50,-,>20 µM
CO[C@@]1(NC(=O)CSCC#N)C(=O)N2C(C(=O)O)=C(CSc3nnnn3C)CS[C@@H]21,Mycobacterium fortuitum,1048,-,-,MIC,-,6.25 µg/mL
Cc1nc2ccc(Cl)cn2c1C(=O)NCc1ccc(-c2ccccc2)cc1,Mycobacterium ulcerans,-,fluorescence,-,MIC50,-,0.001–0.01 µg/mL
CCCCCCCCCCC(CCCCCCCCCC)NC(=O)NC(CCC(=O)O)(CCC(=O)O)CCC(=O)O,Mycobacterium marinum,ATCC 927,-,-,MIC,-,216 µg/mL
CO[C@H]1/C=C/O[C@@]2(C)Oc3c(C)c(O)c4c(O)c(c5c(c4c3C2=O)NC2(CCN(CC(C)C)CC2)N=5)=NC(=O)/C(C)=C\C=C\[C@H](C)[C@H](O)[C@@H](C)[C@@H](O)[C@@H](C)[C@H](OC(C)=O)[C@@H]1C,Mycobacterium avium intracellulare,12-Feb,-,-,MIC,-,0.25 µg/mL
CCCCCCCCCCCCCCCCCCCCCCNC(=O)NC(CCC(=O)O)(CCC(=O)O)CCC(=O)O,Mycobacterium chelonae,EO-P-1,-,-,MIC,-,36 µg/mL
c1ccc(CCNc2ncnc3ccccc23)cc1,Mycobacterium bovis BCG,-,luminescence,-,MIC50,-,>10 µM
CO[C@@]1(NC(=O)C(C(=O)O)c2ccc(O)cc2)C(=O)N2C(C(=O)O)=C(CSc3nnnn3C)CO[C@@H]21,Mycobacterium fortuitum,1049,-,-,MIC,-,50 µg/mL
FC(F)(F)c1ccccc1CCNc1ncnc2ccccc12,Mycobacterium bovis BCG,-,luminescence,-,MIC50,-,>50 µM
O=C(NNC(=O)c1ccncc1)Nc1ccc(Cl)c(C(F)(F)F)c1,Mycobacterium kansasii,My 235/80,broth dilution,7 d,MIC100,-,62.5 µM
CCc1nc2ccc(Cl)cn2c1C(=O)NCc1cc(F)c(N2CCN(c3ccc(OC(F)(F)F)cc3)[C@@H](C)C2)c(F)c1.Cl,Mycobacterium avium,-,fluorescence,-,inhibition,0.0055 µM,85%
FS(F)(F)(F)(F)c1ccc(CNc2ncnc3ccccc23)cc1,Mycobacterium bovis BCG,-,luminescence,-,MIC50,-,>20 µM
Cc1ccn2c(C(=O)NCc3ccc(C4CCN(c5ccc(OCCF)cc5)CC4)c(F)c3)c(C)nc2c1,Mycobacterium avium,-,fluorescence,-,inhibition,0.048 µM,85%
FC(F)(F)Oc1ccc(CCNc2ncnc3ccccc23)cc1,Mycobacterium bovis BCG,-,luminescence,-,MIC50,-,>20 µM
CO[C@H]1/C=C/O[C@@]2(C)Oc3c(C)c(O)c4c(O)c(cc(O)c4c3C2=O)NC(=O)/C(C)=C\C=C\[C@H](C)[C@H](O)[C@@H](C)[C@@H](O)[C@@H](C)[C@H](OC(C)=O)[C@@H]1C,Mycobacterium marinum,ATCC 927,-,-,MIC,-,0.8 µg/mL
c1ccc2c(Nc3ccc(N4CCOCC4)cc3)ncnc2c1,Mycobacterium bovis BCG,-,luminescence,-,MIC50,-,>50 µM
Cc1cn2c(C(=O)NCc3ccc(N4CC=C(c5ccc(OC(F)(F)F)cc5)CC4)c(F)c3)c(C)nc2s1.Cl,Mycobacterium avium,-,fluorescence,-,inhibition,0.34 µM,85%
FC(F)(F)Oc1ccc(CCNc2ncnc3cc(C(F)(F)F)ccc23)cc1,Mycobacterium bovis BCG,-,luminescence,-,MIC50,-,>20 µM
CO[C@@]1(NC(=O)C2SC(=C(C(N)=O)C(=O)[O-])S2)C(=O)N2C(C(=O)[O-])=C(CSc3nnnn3C)CS[C@@H]21,Mycobacterium fortuitum,4-May,-,-,MIC,-,25 µg/mL
Fc1ccc(-n2c(=S)oc3ccc(Cl)cc3c2=S)cc1,Mycobacterium kansasii,6509/96,-,21 d,MIC,-,8 µM
FC(F)(F)Oc1ccc(CCNc2ncnc3ccsc23)cc1,Mycobacterium bovis BCG,-,luminescence,-,MIC50,-,>50 µM
COc1ccc(Nc2nnc(-c3ccncc3)o2)cc1,Mycobacterium kansasii,My 235/80,broth dilution,7 d,MIC100,-,>125 µM
Clc1ccc(CCNc2ncnc3ccccc23)cc1,Mycobacterium bovis BCG,-,luminescence,-,MIC50,-,>10 µM
Cc1nc2ccccn2c1C(=O)NCc1ccc(N2CCN(c3ccc(OC(F)(F)F)cc3)[C@@H](C)C2)c(F)c1.Cl,Mycobacterium avium,-,fluorescence,-,inhibition,0.0054 µM,85%
FC(F)(F)Oc1cccc(CCNc2ncnc3ccccc23)c1,Mycobacterium bovis BCG,-,luminescence,-,MIC50,-,>20 µM
Cc1ccc(-n2c(=O)oc3ccc(Br)cc3c2=S)cc1,Mycobacterium kansasii,My 235/80,-,14 d,MIC,-,2 µM

The last 9 rows once more:

compound,species,strain or isolate,read by,conditions,endpoint,tested at,result
FC(F)(F)Oc1ccc(CCNc2ncnc3cc(C(F)(F)F)ccc23)cc1,Mycobacterium bovis BCG,-,luminescence,-,MIC50,-,>20 µM
CO[C@@]1(NC(=O)C2SC(=C(C(N)=O)C(=O)[O-])S2)C(=O)N2C(C(=O)[O-])=C(CSc3nnnn3C)CS[C@@H]21,Mycobacterium fortuitum,4-May,-,-,MIC,-,25 µg/mL
Fc1ccc(-n2c(=S)oc3ccc(Cl)cc3c2=S)cc1,Mycobacterium kansasii,6509/96,-,21 d,MIC,-,8 µM
FC(F)(F)Oc1ccc(CCNc2ncnc3ccsc23)cc1,Mycobacterium bovis BCG,-,luminescence,-,MIC50,-,>50 µM
COc1ccc(Nc2nnc(-c3ccncc3)o2)cc1,Mycobacterium kansasii,My 235/80,broth dilution,7 d,MIC100,-,>125 µM
Clc1ccc(CCNc2ncnc3ccccc23)cc1,Mycobacterium bovis BCG,-,luminescence,-,MIC50,-,>10 µM
Cc1nc2ccccn2c1C(=O)NCc1ccc(N2CCN(c3ccc(OC(F)(F)F)cc3)[C@@H](C)C2)c(F)c1.Cl,Mycobacterium avium,-,fluorescence,-,inhibition,0.0054 µM,85%
FC(F)(F)Oc1cccc(CCNc2ncnc3ccccc23)c1,Mycobacterium bovis BCG,-,luminescence,-,MIC50,-,>20 µM
Cc1ccc(-n2c(=O)oc3ccc(Br)cc3c2=S)cc1,Mycobacterium kansasii,My 235/80,-,14 d,MIC,-,2 µM

Rows are shuffled and stem from different studies. An empty or dashed field is not shown. MIC50, MIC90 and the like: level of inhibition, or share of isolates inhibited. a–b is a range or a potency band.